Reference: PubChem BioAssay AID624099 (ICCB-Longwood, 2012)
Shown is an unselected part of about 21,000 deposited reagents. 497 of all reagents (2.4%) were called active. 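Higher z means weaker E2 silencing; only reporter increases were scored, and knock-downs that hurt cell survival may mask genuine repressor factors.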 The numbers tell different reagents against one gene apart.

- Test: 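Knock-downs relieving repression by E2 of an HPV18 LCR luciferase reporter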 (primary screen)
- Cell system: human C33A cervical carcinoma cells (HPV-negative) stably expressing BPV1 E2 and an HPV18 LCR luciferase reporter
- Knock-down reagent: siRNA pool against human genes, 40 nM
- Time to read-out: 72 h
- Read-out: 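Per-well luciferase luminescence, z-scored on each plate against the plate mean and SD with control wells left out, then averaged across three replicate plates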
- Reading the numbers: mean z-score and z-score: higher = stronger reporter signal, weaker E2 silencing
- Active means: 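Hit if mean z-score reaches 2 and two or more of three replicate z-scores also reach 2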

target gene | pool no. | mean z-score | z-score, replicate A | z-score, replicate B | z-score, replicate C | activity call
TIMM23B (translocase of inner mitochondrial membrane 23 homolog B) | 1 | -0.07 | -0.09 | -0.11 | -0.01 | inactive
GAD1 (glutamate decarboxylase 1) | 1 | 0.83 | 1.32 | 0.83 | 0.34 | inactive
C1GALT1 | 1 | 0.15 | -0.15 | -0.14 | 0.75 | inactive
LOC730218 (retired record) | 1 | -0.1 | 0.22 | -0.32 | -0.19 | inactive
ZNF75A (zinc finger protein 75A) | 1 | 0.51 | 0.46 | 0.67 | 0.39 | inactive
FN1 (fibronectin 1) | 1 | 0.65 | 0.61 | 0.7 | 0.65 | inactive
ARHGEF11 (Rho guanine nucleotide exchange factor 11) | 1 | 1.04 | 0.84 | 1.2 | 1.08 | inactive
EFCAB12 (EF-hand calcium binding domain 12) | 1 | 1.33 | 1.16 | 1.39 | 1.46 | inactive
KYAT1 (kynurenine aminotransferase 1) | 1 | -0.44 | -0.3 | -0.76 | -0.27 | inactive
NPR3 (natriuretic peptide receptor 3) | 1 | -0.2 | -0.06 | -0.21 | -0.34 | inactive
NPR3 (natriuretic peptide receptor 3) | 2 | 0.2 | 0.23 | -0.01 | 0.37 | inactive
LOC400923 (retired record) | 1 | -0.58 | -0.79 | -0.47 | -0.47 | inactive
PLAAT4 (phospholipase A and acyltransferase 4) | 1 | 1.28 | 1.27 | 1.29 | 1.29 | inactive
LINC00652 (long independently transcribed non-coding RNA 652) | 1 | 1.05 | 0.67 | 0.78 | 1.71 | inactive
KCNH5 (potassium voltage-gated channel subfamily H member 5) | 1 | 0.21 | 0.34 | 0.17 | 0.12 | inactive
SRGAP3 (SLIT-ROBO Rho GTPase activating protein 3) | 1 | -0.87 | -0.9 | -0.86 | -0.85 | inactive

A run of entries from the list above, as a working copy:
target gene | pool no. | mean z-score | z-score, replicate A | z-score, replicate B | z-score, replicate C | activity call
LOC730218 (retired record) | 1 | -0.1 | 0.22 | -0.32 | -0.19 | inactive
ZNF75A (zinc finger protein 75A) | 1 | 0.51 | 0.46 | 0.67 | 0.39 | inactive
FN1 (fibronectin 1) | 1 | 0.65 | 0.61 | 0.7 | 0.65 | inactive
ARHGEF11 (Rho guanine nucleotide exchange factor 11) | 1 | 1.04 | 0.84 | 1.2 | 1.08 | inactive
EFCAB12 (EF-hand calcium binding domain 12) | 1 | 1.33 | 1.16 | 1.39 | 1.46 | inactive
KYAT1 (kynurenine aminotransferase 1) | 1 | -0.44 | -0.3 | -0.76 | -0.27 | inactive

Continued:
target gene | pool no. | mean z-score | z-score, replicate A | z-score, replicate B | z-score, replicate C | activity call
TIGD7 (tigger transposable element derived 7) | 1 | 0.07 | -0.14 | 0.11 | 0.25 | inactive
SDS (serine dehydratase) | 1 | -0.48 | -0.41 | -0.47 | -0.57 | inactive
CHN1 (chimerin 1) | 1 | 0.24 | 0.12 | 0.12 | 0.47 | inactive
LOC387654 (retired record) | 1 | 0.52 | -0.01 | 0.85 | 0.72 | inactive
SIRT3 (sirtuin 3) | 1 | -0.11 | 0.37 | -0.21 | -0.51 | inactive
SLITRK6 (SLIT and NTRK like family member 6) | 1 | -0.33 | -0.51 | -0.37 | -0.1 | inactive
CLASP2 (cytoplasmic linker associated protein 2) | 1 | 0.87 | 0.76 | 0.92 | 0.91 | inactive
TMEM273 (transmembrane protein 273) | 1 | -1 | -0.96 | -1.13 | -0.9 | inactive
CHML (CHM like Rab escort protein) | 1 | -1.64 | -1.53 | -1.51 | -1.88 | inactive
EXTL2 (exostosin like glycosyltransferase 2) | 1 | -0.74 | -0.83 | -1.19 | -0.21 | inactive
WASHC3 (WASH complex subunit 3) | 1 | -0.39 | -0.76 | -0.17 | -0.24 | inactive
CRYBB1 (crystallin beta B1) | 1 | -0.34 | -0.37 | -0.18 | -0.47 | inactive
ACVR2B (activin A receptor type 2B) | 1 | 0.56 | 0.55 | 0.86 | 0.25 | inactive
ASIC4 (acid sensing ion channel subunit family member 4) | 1 | -1.84 | -2 | -1.71 | -1.81 | inactive
LOC400093 (retired record) | 1 | 0.17 | 0.17 | 0.16 | 0.2 | inactive
GPR101 (G protein-coupled receptor 101) | 1 | 0.27 | -0.07 | 0.41 | 0.48 | inactive
SEPHS1 (selenophosphate synthetase 1) | 1 | 0.39 | 0.28 | 0.4 | 0.49 | inactive
ELP4 (elongator acetyltransferase complex subunit 4) | 1 | 0.63 | 0.77 | 0.72 | 0.4 | inactive
ABCB7 (ATP binding cassette subfamily B member 7) | 1 | 0.43 | 0.34 | 0.66 | 0.31 | inactive
ZNF618 (zinc finger protein 618) | 1 | -0.38 | -0.55 | -0.33 | -0.28 | inactive
TMEM74B (transmembrane protein 74B) | 1 | 0.14 | 0.21 | 0.13 | 0.07 | inactive
SUMF2 (sulfatase modifying factor 2) | 1 | -0.78 | -1.06 | -0.58 | -0.69 | inactive
DDX41 (DEAD-box helicase 41) | 1 | -0.33 | -0.15 | -0.59 | -0.24 | inactive
